## HIV-1 5' UTR: DMS reactivities by position

The measurements come from Ye et al. 2022 (doi:10.1038/s41594-022-00746-2).

Sequence of the HIV-1 NL4-3 5' RNA, positions 1 to 437, as numbered in the source:
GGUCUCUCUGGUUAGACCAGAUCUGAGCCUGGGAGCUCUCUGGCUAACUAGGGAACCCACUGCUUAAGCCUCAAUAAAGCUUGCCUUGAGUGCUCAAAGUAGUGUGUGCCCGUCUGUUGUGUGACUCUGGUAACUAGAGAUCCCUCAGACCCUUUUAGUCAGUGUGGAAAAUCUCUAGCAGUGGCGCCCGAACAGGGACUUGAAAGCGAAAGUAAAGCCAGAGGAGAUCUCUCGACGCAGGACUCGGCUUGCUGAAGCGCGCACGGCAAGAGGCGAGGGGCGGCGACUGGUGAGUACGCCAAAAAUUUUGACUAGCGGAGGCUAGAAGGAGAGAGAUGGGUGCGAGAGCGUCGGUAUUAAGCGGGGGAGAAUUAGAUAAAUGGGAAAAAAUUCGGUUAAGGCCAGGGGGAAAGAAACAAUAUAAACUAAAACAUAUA

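Mutant RNA libraries with 1G, 2G or 3G starts, with or without cap, were folded at 37 °C for 30 min. Monomer and dimer bands were cut from native gels after folding in high salt (300 mM KCl, 5 mM MgCl2) or low salt (40 mM KCl, 0.1 mM MgCl2). Gel slices were treated with 170 mM dimethyl sulfate for 15 min at 37 °C and read by mutational profiling against an ethanol control.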

Scale: normalised reactivity, A and C only; low values point to paired or protected bases, higher values to unpaired ones.
One numbering serves 1G, 2G and 3G.
A position is written with its base.

| position | 2G capped low-salt dimer | 2G capped low-salt monomer | 2G uncapped high-salt dimer | 2G uncapped high-salt monomer |
|---|---|---|---|---|
| A19 | 0.03 | 0.03 | 0.03 | 0.03 |
| A21 | 0.54 | 0.52 | 0.54 | 0.61 |
| C23 | 1.16 | 1.32 | 1.12 | 1.34 |
| A26 | 0.13 | 0.09 | 0.13 | 0.11 |
| C28 | 0.03 | 0.03 | 0.03 | 0.03 |
| C29 | 0.09 | 0.10 | 0.08 | 0.09 |
| A34 | 1.02 | 1.11 | 1.02 | 1.23 |
| C36 | 0.03 | 0.03 | 0.03 | 0.03 |
| C38 | 0.03 | 0.03 | 0.03 | 0.03 |
| C40 | 0.03 | 0.03 | 0.03 | 0.03 |
| C44 | 0.03 | 0.03 | 0.03 | 0.03 |
| A46 | 0.05 | 0.04 | 0.05 | 0.04 |
| A47 | 0.15 | 0.14 | 0.13 | 0.12 |
| C48 | 0.05 | 0.03 | 0.04 | 0.03 |
| A50 | 0.15 | 0.13 | 0.14 | 0.12 |
| A54 | 0.17 | 0.14 | 0.18 | 0.17 |
| A55 | 0.24 | 0.26 | 0.26 | 0.31 |
| C56 | 0.03 | 0.04 | 0.03 | 0.04 |
| C57 | 0.03 | 0.03 | 0.03 | 0.03 |
| C58 | 0.56 | 0.98 | 0.54 | 0.97 |
| A59 | 0.37 | 0.50 | 0.32 | 0.52 |
| C60 | 0.19 | 0.38 | 0.17 | 0.36 |
| C63 | 0.12 | 0.25 | 0.09 | 0.21 |
| A66 | 1.05 | 1.01 | 1.15 | 1.06 |
| A67 | 0.58 | 0.73 | 0.58 | 0.81 |
| C69 | 0.03 | 0.03 | 0.03 | 0.03 |
| C70 | 0.03 | 0.03 | 0.03 | 0.03 |
| C72 | 0.10 | 0.08 | 0.09 | 0.08 |
| A73 | 0.03 | 0.03 | 0.04 | 0.05 |
| A74 | 0.64 | 0.76 | 0.53 | 0.75 |
| A76 | 0.25 | 0.25 | 0.26 | 0.31 |
| A77 | 0.71 | 0.78 | 0.67 | 0.88 |
| A78 | 0.63 | 0.73 | 0.66 | 0.78 |
| C80 | 0.36 | 0.39 | 0.35 | 0.38 |
| C84 | 0.64 | 0.49 | 0.64 | 0.50 |
| C85 | 0.38 | 0.31 | 0.38 | 0.31 |
| A89 | 0.35 | 0.49 | 0.32 | 0.52 |
| C93 | 0.03 | 0.03 | 0.03 | 0.03 |
| C95 | 0.54 | 0.60 | 0.51 | 0.56 |
| A96 | 0.23 | 0.25 | 0.24 | 0.32 |
| A97 | 0.32 | 0.44 | 0.29 | 0.47 |
| A98 | 0.27 | 0.36 | 0.24 | 0.38 |
| A101 | 0.15 | 0.18 | 0.13 | 0.19 |
| C109 | 0.21 | 0.16 | 0.21 | 0.16 |
| C110 | 0.16 | 0.16 | 0.17 | 0.18 |
| C111 | 0.23 | 0.28 | 0.24 | 0.30 |
| C114 | 0.23 | 0.20 | 0.25 | 0.24 |
| A124 | 0.94 | 1.12 | 0.86 | 1.14 |
| C125 | 0.10 | 0.08 | 0.09 | 0.08 |
| C127 | 0.03 | 0.03 | 0.03 | 0.03 |
| A132 | 0.52 | 0.48 | 0.57 | 0.67 |
| A133 | 1.39 | 1.41 | 1.45 | 1.69 |
| C134 | 0.17 | 0.17 | 0.13 | 0.15 |
| A136 | 0.10 | 0.12 | 0.09 | 0.10 |
| A138 | 0.11 | 0.15 | 0.10 | 0.13 |
| A140 | 0.33 | 0.47 | 0.30 | 0.39 |
| C142 | 0.07 | 0.08 | 0.06 | 0.08 |
| C143 | 0.03 | 0.03 | 0.03 | 0.03 |
| C144 | 0.03 | 0.03 | 0.03 | 0.03 |
| C146 | 0.12 | 0.13 | 0.09 | 0.13 |
| A147 | 0.42 | 0.44 | 0.44 | 0.44 |
| A149 | 0.08 | 0.15 | 0.07 | 0.10 |
| C150 | 0.05 | 0.09 | 0.04 | 0.07 |